What was measured:
[1] = system: primary human hepatocytes; conditions: for PHH Tox pCC50: -log of CC50 in [M], mean ± SD; for CC50: read-out: PHH Tox CC50, host primary human hepatocytes of the P. vivax liver stage assay, two independent experiments
HepG2 cells = assay: HepG2 cytotoxicity; conditions: for HepG2 Tox pCC50: -log of CC50 in [M], mean ± SD of independent experiments; for HepG2 Tox pCC50 / CC50: 72 h; for CC50: read-out: HepG2 Tox CC50, geometric mean of three independent experiments

Compound	PHH Tox pCC50 [1]	CC50 [1] [nM]	HepG2 Tox pCC50 (HepG2 cells)	CC50 (HepG2 cells) [nM]	cytotoxicity (in words) (HepG2 cells; HepG2)
CC1=C[C@H]2O[C@@H]3C[C@@H](O)[C@](C)([C@@]2(CO)CC1)[C@@]31CO1	5.00 ± 0.00	> 10000	5.00 ± 0.00	> 10000	
verrucarin A	6.50 ± 0.05	316	8.45 ± 0.18	3.55	cytotoxic

Source: publication PMC10897926 (Journal of Natural Products, 2024)
